Changes are numbered by the printed parent chain. This is one part of the list. Env chains of viruses from a treatment-interruption trial, translated from the printed DNA. IC50 / IC80 of two broadly neutralizing antibodies; lower = more sensitive virus; >50 µg/ml means not reached and <0.001 µg/ml is below the lowest dose. No active / inactive call.
B1: HIV-1 Env, rebound clone, placebo arm (protein)
chain: MIVMGMKRNWQQWWRGGILLLGMLMMICSAEDNAWVTVYYGVPVWREANVTLFCASDAKAYDTEVHNVWATHACVPTDPSPQEIKLENVTENFNMWKNNMVEQMHEDIISLWDQSLKPCVKLTPLCVTLNCTDYLGSNATNSTSGNNGTISNNITIEDSEKGEIKNCSFNVTTGIRDKMNKEYALLYKTDLVSIDNDNTSYRLISCNTSVITQACPKVTFEPIPIHYCAPAGFAILKCKDKKFNGTGPCKNVSTVQCTHGIRPVVSTQLLLNGSLAEEDVVIRSANFTNNAKVIIVQLNETVEINCTRPNNNTRKGINIGPGRAWYTIKDIVGDIRQAHCNISRPKWNRALEKIVEKLREQFGVNKTIVFNQSSGGDPEIVMHHFNCQGEFFYCNTTGLFNTRWNDTWENYTAGQGNNETITLPCRIRQIVNLWQEVGKAMYAPPIRGYINCSSNITGLLLVRDGGIKNSTNDTDNNTEIFRPGGGDMRDNWRSELYKYKVVQVEPVGIAPTRAKRRVVQREKRAVTLGAMFLGFLGTAGSTMGAASLTLTVQVRQLLSGIVQQQNNLLRAIEAQQHLLQLTVWGIKQLQARVLAVERYLRDQQILGIWGCSGKLICTTAVPWNTSWSNKSVDHIWGNMTWMQWEREIENYTGVIYKLLEESQNQQEKNEQDLLELDKWASLWTWFDITHWLWYIRLFIMIVGGLIGLRIVFAVFSLVNRVRQGYSPLSFQTHLPAPRGPDRPEGIEEEGGEPDRGRSVRLVNGFLALIWDDLRSLCLFSYHRLRDLLLIVTRIVELLGRRGWEAIKYLWNLLQYWSQELKNSAVSLLNAFAIAVAEGTDRVIEIIQGAFRAIIHIPRRIRQGLERSLL
B2: HIV-1 Env, rebound clone, placebo arm (protein)
chain: B1 chain with M531V
B3: HIV-1 Env, rebound clone, placebo arm (protein)
chain: MIVMGMKRNWQQWWRGGILLLGMLMMICSAEDNAWVTVYYGVPVWREANVTLFCASDAKAYDTEVHNVWATHACVPTDPSPQEIKLENVTENFNMWKNNMVEQMHEDIISLWDQSLKPCVKLTPLCVTLNCTDYLGSNATNSTSGNNGTISNNITIEDSEKGEIKNCSFNVTTGIRDKMNKEYALLYKTDLVSIDNDNTSYRLISCNTSVITQACPKVTFEPIPIHYCAPAGFAILKCKDKKFNGTGPCKNVSTVQCTHGIRPVVSTQLLLNGSLAEEDVVIRSANFTNNAKVIIVQLNETVEINCTRPNNNTRKGINIGPGRAWYTIKDIVGDIRQAHCNISRPKWNRALEKIVEKLREQFGVNKTIVFNQSSGGDPEIVMHHFNCQGEFFYCNTTGLFNTRWNDTRNDTWENYTAGQGNNETITLPCRIRQIVNLWQEVGKAMYAPPIRGYINCSSNITGLLLVRDGGIKNSTNDTDNNTEIFRPGGGDMRDNWRSELYKYKVVQVEPVGIAPTRAKRRVVQREKRAVTLGAMFLGFLGTAGSTMGAASLTLTVQVRQLLSGIVQQQNNLLRAIEAQQHLLQLTVWGIKQLQARVLAVERYLRDQQILGIWGCSGKLICTTAVPWNTSWSNKSVDHIWGNMTWMQWEREIENYTGVIYKLLEESQNQQEKNEQDLLELDKWASLWTWFDITHWLWYIRLFIMIVGGLIGLRIVFAVFSLVNRVRQGYSPLSFQTHLPAPRGPDRPEGIEEEGGEPDRGRSVRLVNGFLALIWDDLRSLCLFSYHRLRDLLLIVTRIVELLGRRGWEAIKYLWNLLQYWSQELKNSAVSLLNAFAIAVAEGTDRVIEIIQGAFRAIIHIPRRIRQGLERSLL
B4: HIV-1 Env, rebound clone, placebo arm (protein)
chain: B3 chain with D406G, R408W, T416P
B5: HIV-1 Env, rebound clone, placebo arm (protein)
chain: B3 chain with N99D, G398R, D406G, R408W
B6: HIV-1 Env, rebound clone, placebo arm (protein)
chain: B3 chain with W404R, D406G, R408W

The binders below were run against antibody 10-1074 (assay: neutralization IC50; higher = virus less sensitive to the antibody).
Protocol: (§1)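 Pseudovirus bearing the Env chain mixed with antibody, from 50 µg/ml in fivefold dilutions, on TZM-bl reporter cells, in duplicate.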

Binder	neutralization IC50 [µg/mL]
B1	0.356
B2	0.387
B3	0.162
B4	0.347
B5	0.242
B6	0.227

What follows are binders tested against antibody 3BNC117 in the same assay as above.
Protocol: as §1

Binder	neutralization IC50 [µg/mL]
B1	0.39
B2	0.499
B3	0.198
B4	0.387
B5	0.29
B6	0.172

What follows are binders tested against antibody 10-1074 (assay: neutralization IC80; higher = virus less sensitive to the antibody).
Protocol: as §1

Binder	neutralization IC80 [µg/mL]
B1	1.28
B2	1.35
B3	0.496
B4	0.975
B5	0.842
B6	0.884

These binders were tested against antibody 3BNC117 in the same assay as above.
Protocol: as §1

Binder	neutralization IC80 [µg/mL]
B1	1.33
B2	1.7
B3	0.725
B4	1.34
B5	1.97
B6	0.822

Source: the supplement of paper PMC12637763
